Assay results: the supplement of paper PMC9931576
Human monoclonal antibodies against the spike receptor-binding domain (heavy:light variable regions). IC50 against pseudoviruses bearing the spike of naturally observed variants; lower = stronger; >10 µg/ml means not reached at the top dose. No active / inactive call. The stated detection limit is 0.0005 µg/ml; values near or below 0.001 µg/ml lie at the floor of the assay.

Experiments:
Test in all cases: pseudovirus neutralization IC50; higher = weaker neutralization
[1] = biological target: SARS-CoV-2 Omicron BA.1 spike pseudovirus
Experimental: (§1)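 Single-round VSV luciferase pseudovirus mixed with antibody dilutions for 1 h and put on Huh-7 cells for about a day; IC50 from the dose curve.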

[2] = biological target: SARS-CoV-2 Omicron BA.2 spike pseudovirus
Experimental: as §1

[3] = biological target: SARS-CoV-2 Omicron BA.2.75 spike pseudovirus
Experimental: as §1

[4] = biological target: SARS-CoV-2 Omicron BA.5 spike pseudovirus
Experimental: as §1

[5] = biological target: SARS-CoV-2 Omicron BQ.1.1 spike pseudovirus
Experimental: as §1

[6] = biological target: SARS-CoV-2 Omicron XBB spike pseudovirus
Experimental: as §1

[7] = biological target: SARS-CoV-2 early D614G spike pseudovirus
Experimental: as §1

| Binder | pseudovirus neutralization IC50 [1] | pseudovirus neutralization IC50 [2] | pseudovirus neutralization IC50 [3] | pseudovirus neutralization IC50 [4] | pseudovirus neutralization IC50 [5] | pseudovirus neutralization IC50 [6] | pseudovirus neutralization IC50 [7] |
| --- | --- | --- | --- | --- | --- | --- | --- |
| BD56-901 (protein) chain 1: QVQLVESGGGVVQPGRSLRLSCVASGFSFSTYGMHWVRQAPGKGLEWVAVIWYDGNNKYYADSVKGRFTISRDNSKNTLYLQMNSLRAEDTAVYYCAKELPYSRVAGNDDYYYYYGMDVWGQGTTVTVSS chain 2: SHELTQPPSVSVSPGQTASITCSGDKLGDKYASWYQQKPGQSPVLVIFQDSKRPSGIPERFSGSNSGNTATLTISGTQAMDEADYYCQAWGSGTARNWVFGGGTKLTVL | 0.536 µg/mL | 2.75 µg/mL | 1.45 µg/mL | 2.94 µg/mL | 1.67 µg/mL | 1.5 µg/mL | > 10 µg/mL |
| BD56-904 (protein) chain 1: QVQLVQSGAEVKKPGSSVKVSCKASGGTFSSYAISWVRQAPGQGLEWMGRIIPILGIANFAQKFQGRVTITADKSTNTAYMELSSLRSEDTAVYYCARDEGYSGSGSNNWFDPWGQGTLVTVSS chain 2: QSVLTQPPSVSGAPGQRVTISCTGSNSNIGAGYDVHWYQQLRGTAPKVLIYGNSNRPSGVPDRFSGSKSGTSASLAITGLQAEDEADYYCQSYDSGLSGSVFGGGTKLTVL | 2.99 µg/mL | 1.83 µg/mL | 1.51 µg/mL | > 10 µg/mL | > 10 µg/mL | 2.58 µg/mL | 2.3 µg/mL |
| BD56-907 (protein) chain 1: EVQLVESGGGLVQTGRSLRLSCAASGFTFDDYAMHWVRQAPGKGLDWVSGITSNSGTIGYADSVKGRFTISRDNAKNSLYLQINSLRAEDTALYYCAKDGRQWLVEGEGFFDYWGQGTRVTVSS chain 2: QSALTQPASVSGSPGQSITISCTGTSSDVGGFNYVSWYRQDPGKAPKFMIYDVSKRPSGVSNRFSGSKSGNTASLTISGLQAEDESDYYCSSYTSSSTYVFGTGTKVTVL | > 10 µg/mL | > 10 µg/mL | > 10 µg/mL | > 10 µg/mL | > 10 µg/mL | > 10 µg/mL | 0.594 µg/mL |
| BD56-911 (protein) chain 1: HVQLVQSGAEVKKPGSSVKVSCLASGDSLSSYTISWVRQAPGQGLEWMGGIIPILGIPNYAQKFQGRVTITADKSTSTAYMELSSLRSEDTAVYFCAREWGVLGYCSSTSCYSLWGQGTMVTVSS chain 2: QSVLTQPPSVSGAPGQRVTISCTGSSSNIGAGYDVHWYQQLPGTAPKLLIYDNTNRPSGVPDRFSGSKSGTSASLAITGLQAEDEADYYCQSYDSSLSAVVFGGGTKLTVL | 0.443 µg/mL | 0.381 µg/mL | 0.69 µg/mL | > 10 µg/mL | > 10 µg/mL | > 10 µg/mL | 0.328 µg/mL |
| BD56-913 (protein) chain 1: EVQLVESGGDLVKPGGSLRLSCAASGFSFSDAWMTWVRQSPGKGLEWVGRIKTQIDGGTKDYAAPVKGRFTISRDDSKNTLHLDMNSLKTEDTALYYCTTDFNPLDDYGGYWGQGTLVTVSS chain 2: SYVLTQPPSVSVAPGKTARITCGGDNIGNKRVQWYQQKPGQAPVLVIYYDRDRPSGIPERFSGSNSGNTATLTISRVEAGDEADFYCQVWDTNSDHFWVFGGGTKLTVL | 0.86 µg/mL | 1.37 µg/mL | > 10 µg/mL | > 10 µg/mL | > 10 µg/mL | > 10 µg/mL | > 10 µg/mL |
| BD56-915 (protein) chain 1: EVQLVESGGGLVQPGRSLTVSCAASGFTFEDYAIHWVRQTPGKGLEWVSGMSCNSATIGYADSVKGRFIISRDNAKNSLYLHMRSLRAEDTALYYCVKDRESSGESSGFDYWGQGTLVTVSP chain 2: SYVLTQPPSVSVAPGKTAIISCGVNNIGTKGVHWYQQKPGQAPVLVIYYDSDRPSGIPERFSGSKSGSTATLTITRVEAGDEADYYCQVWDSSSDLWVFGGGTKLTVL | 0.102 µg/mL | 0.22 µg/mL | 0.27 µg/mL | > 10 µg/mL | > 10 µg/mL | 3.84 µg/mL | 0.011 µg/mL |
| BD56-919 (protein) chain 1: QVQLVESGGGVVQPGRSLRLSCAVSGFTFRTYVMHWVRQAPGKGLEWVATILYDGSDTYHSDSVKGRFTISRDNSKNTLYLQMNSLRTEDTAVYYCAKQGGPYCSGGSCYGGVFDYWGQGTPVTVSS chain 2: DIQMTQSPSSLSASVRDRVTITCQASQDINNHLNWYQQKPGKAPKLLVYDASNLETGVPSRFSGSGSGTDFTFTISSLQPEDFATYYCQQYDNLPLTFGGGTKVEIK | > 10 µg/mL | > 10 µg/mL | > 10 µg/mL | > 10 µg/mL | > 10 µg/mL | > 10 µg/mL | > 10 µg/mL |
| BD56-920 (protein) chain 1: QEQLVQSGAEVEMPGASVKVSCKASGYTFTRYEINWVRQATGQGLEWLGWMNPNSGNTGYAQKFQGRVTMTRNTSISTAYMELRSLTSEDTAVYYCARGPHEAARPHYFYYAMDVWGQGTTVTVSS chain 2: QSVLTQPPSVSAAPGQKVTISCSGTSPNIGNNYFSWYHQLPGTAPQLLIYDDNKRPSGIPDRFSGSKSGTSATLAITGLQTGDEADYYCGTWDSSLSAWVFGGGTKLTVL | 0.00546 µg/mL | 0.00299 µg/mL | 0.00679 µg/mL | 0.169 µg/mL |  |  | 0.00748 µg/mL |
| BD56-921 (protein) chain 1: QVTLKESGPVLVKPTETLTLTCTVSGFSLSSPRVGVSWIRQPPGKALEWLAKIFSNDEKSYSTSLKTRLTISRDTSKSQVVLTMTNMDPVDTGTYYCARICHASGNFYSDENYFDPWGQGALVTVSP chain 2: SYELTQPPSVSVSPGQTARITCSGDAFPNQFAYWYQQKAGQAPVVVIYKDSERPSGIPERFSGSSSGPTVTLTISGVQAEDEADYYCQSSDSSGVVFGGGTKLTVL | > 10 µg/mL | > 10 µg/mL | > 10 µg/mL | > 10 µg/mL | > 10 µg/mL | > 10 µg/mL | > 10 µg/mL |
| BD56-930 (protein) chain 1: QVQLVQSGAEVKKPGASVKVSCKASGYTFTSYDISWVRQAPGQGLEWMGWISANNGNTNYAQKLQGRVTMTTDTSTSTSYMELRSLRSDDTAVYYCARDGQTAGYSGTSLPFDHWGQGTLVTVSS chain 2: SYVLTQPPSVSVAPGQTARITCGENNIGSKSVHWYQQRPGQAPVLVVYDDSDRPSGIPERFSGSNSGNTATLTISRVGAGDEADYYCQVWGSSGDHWVFGGGTKLTVL | > 10 µg/mL | > 10 µg/mL | > 10 µg/mL | > 10 µg/mL | > 10 µg/mL | > 10 µg/mL | > 10 µg/mL |
| BD56-931 (protein) chain 1: QVQLVQSGAEVKKPGASVKVSCKSSGYTFTSYYLHWVRQAPGQGLEWMGIINPSGGGTRYAQKFQGRVTMTRDTSTSTVYMELSSLRSEDTAVYYCAREGCTGTSCYGDWGQGTLVTVSS chain 2: SYVLTQPPSVSVAPGQTARITCGGNNIGSKSVHWYQQKPGQAPVLVVYDDSDRPSGIPERFSGSNSGNTATLTISRVEAGDEADYYCQLFDGSSDHHYVFGTGTKVTVL | > 10 µg/mL | > 10 µg/mL | > 10 µg/mL | > 10 µg/mL | > 10 µg/mL | > 10 µg/mL | > 10 µg/mL |
| BD56-937 (protein) chain 1: EVQLLESGGGLVQPGKSLRLSCAASGFTFNNYAMNWVRQAPGKGLQWVSSISASGGSTYYADSVKGRFTISRDNSKKTMSLQMNSLRAEDTAVYYCAKERSYYYDSSRLPDDAFDIWGQGTMVTVSS chain 2: DIQLTQSPSFLSASVGDRVTITCRASQDISSYLAWYQQKPGKAPKLLIFSAFTLQSGVPSRFSGSGSGTEFTLRISSLQPEDFATYYCQQLNSYPLTFGQGTKVEIK | 0.0159 µg/mL | 0.00934 µg/mL | 0.0134 µg/mL | 0.00802 µg/mL | > 10 µg/mL | > 10 µg/mL | 0.00785 µg/mL |
| BD56-943 (protein) chain 1: QVQLVESGGGLVKPGGSLRLSCEASGFTFSDYYMSWIRQTPGKGLEWVSYISSGSSFTESADSVKGRFTISRDNAKKSLYLRMINLRAEDTAVYYCARVGPKTYSSTWYDDPSFAYYYMDVWGKGTTVTVSS chain 2: EIVLTQSPGTLSLSPGERATLSCRASQSVNSNYLAWYQQKPGQAPRLLIYGTFSRATGIPDRFSGSGSGTDFTLTITRLEPEDFAVYYCQQCGNSPWTFGRGTKVEIK | 0.0693 µg/mL | 0.0575 µg/mL | 0.0541 µg/mL | 0.0406 µg/mL | 1.6 µg/mL | 0.844 µg/mL | 0.011 µg/mL |
